The series concerns the molecule itself. As to the kind of experiment: crystal structure.

The results in this text go back to PMC10674488, “Structural Basis of Clostridium perfringens Enterotoxin Activation and Oligomerization by Trypsin” (Toxins, 2023).

B1: C-terminal claudin-binding domain of Clostridium perfringens enterotoxin (domain or fragment)
chain: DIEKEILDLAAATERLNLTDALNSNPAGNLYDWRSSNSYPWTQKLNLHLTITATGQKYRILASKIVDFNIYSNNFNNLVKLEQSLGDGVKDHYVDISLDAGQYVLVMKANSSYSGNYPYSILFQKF
With B1, the binding result is reported as “binds”.
